Measured values as given in article PMC4020808.

Experiments:
[1] = test system: C[C@](O)(CO)[C@H](O)COP(=O)(O)OP(=O)(O)OC[C@H]1O[C@@H](n2ccc(N)nc2=O)[C@H](O)[C@@H]1O; assay: purified protein; conditions: pH 7.0; 37.0 °C
[2] = test system: Nc1ncnc2c1ncn2[C@@H]1O[C@H](COP(=O)(O)OP(=O)(O)OP(=O)(O)O)[C@@H](O)[C@H]1O; assay: purified protein; conditions: pH 7.0; 37.0 °C

Q: With (Burkholderia mallei ATCC 23344) as the substance, how does the Km [1] read?
A: 31.3 ± 1.5 µM

Q: And the Km [2]?
A: 76.6 ± 1.1 µM

Q: Which Km [1] does the source give for “(Vibrio cholerae O1 biovar El Tor str. N16961)” here?
A: 52.9 ± 11.7 µM

Q: What about the Km [2] of the same substance?
A: 8.8 ± 1.3 µM
